# Patent US8067442B2, “Heterocyclic antiviral compounds” (Roche Palo Alto LLC, priority 2008, dated 2011)
# Target: HCV polymerase (NS5B570n-Con1) (Hepatitis C virus genotype 1b, UniProt Q9WMX2)
# Settings: read-out: IC50, NS5B polymerase assay; Table I; cIRES template unless otherwise noted
row,SMILES,IC50 [µM]
1,CC(C)(C)c1cc(-c2ccc[nH]c2=O)cc2c(C(=O)N3CC(CNS(C)(=O)=O)C3)coc12,0.083
2,CC(C)(C)OC(=O)NCC1CCCN(C(=O)c2coc3c(C(C)(C)C)cc(-c4ccc[nH]c4=O)cc23)C1 (centres unmarked),1.7
3,CC(C)(C)c1cc(-c2ccc[nH]c2=O)cc2c(C(=O)N3CCC[C@@H]3CO)coc12,0.19
4,CC(C)(C)c1cc(-c2ccc[nH]c2=O)cc2c(C(=O)Nc3cccc(O)c3)coc12,1.89
5,CN1CCCN(C(=O)c2coc3c(C(C)(C)C)cc(-c4ccc[nH]c4=O)cc23)CC1,1.54
6,CC(C)(C)c1cc(-c2ccc[nH]c2=O)cc2c(-c3ccc(CN)cc3)coc12,0.349
7,CC(C)(C)c1cc(-c2ccc[nH]c2=O)cc2c(C(=O)N3CCC(N)CC3)coc12,0.024
8,CC(C)(C)c1cc(-c2ccc[nH]c2=O)cc2c(C(=O)N3CCC[C@@H](NS(C)(=O)=O)C3)coc12,0.194
